The record followed here is patent publication US9675065B2 (priority 2011, dated 2017).

Assay [1] relates to S. aureus (Staphylococcus aureus ATCC#6538).
The subject of assay [2] is Staphylococcus aureus.

Turning to `O=C(CO)O[Cl+2]([O-])[O-]`, in assay [1] (combined with surfactants Tergitol TMN 3, Tergitol TMN 6, Dowfax C10L versus without), the “rate of kill increased by” value was 5 log.

Turning to `O=C(O[Cl+2]([O-])[O-])c1ccccc1`, the “rate of kill / biocide efficacy (in words)” value in assay [1] (acid pH conditions) is “excellent rate of kill”. In addition, in assay [2] (at about pH 7, without penetrators), the “biocide efficacy (in words)” value is on record as “no recognizable biocide efficacy”. Take `CCCCCCCC(=O)O[Cl+2]([O-])[O-]`: in assay [2] (in 30 seconds or less), the “Log Rate of Kill” value was 8 Log. For the same compound, the “rate of kill (in words)” value in assay [2] (pH approaching 6) is recorded as “excellent rate of kill”.
